A mixed list of measured activities; the numbers were collected in NIAID ChemDB.

All rows: growth or infection tests; species: HIV-1; read-out: EC50

ECn: concentration that inhibits the pathogen or its effect by n%.

compound | conditions | cell line | read by | changes | strain | result
CCN1c2ncc(CCOc3ccc(NC(=O)Nc4ccc(C(=O)O)cc4)cc3C)cc2C(=O)N(C)c2cccnc21 | - | C8166 | p24 | - | IIIB | 0.01–0.05 µM
CC(C)C1=C2[C@H]3CC[C@@H]4[C@@]5(C)CC[C@H](OC(=O)CC(C)(C)C(=O)O)C(C)(C)[C@@H]5CC[C@@]4(C)[C@]3(C)CC[C@@]2(NC(=O)c2nccs2)CC1=O | 30% human serum | MT-2 | RT activity | - | IIIB | <0.199 µM
C[C@H]1CN(C(=O)Cn2ccn3c(=O)c(O)c(-c4ncc(Cc5ccc(F)cc5)s4)nc23)C[C@H](C)O1 | - | HEK 293 | luciferase | - | - | 0.001–0.1 µM
Cc1ccc(OCCN(C)c2ccc(-c3cnc(C)c([C@H](OC(C)(C)C)C(=O)O)c3N3CCC(C)(C)CC3)nc2)c(Cl)c1 | - | MT-2 | luminescence | - | NL4-3 | 0.0016 µM
Cc1ccc(C(=O)N[C@@]23CC[C@]4(C)C(CCC5[C@@]6(C)CC[C@H](OC(=O)CC(C)(C)C(=O)O)C(C)(C)C6CC[C@]54C)C2=C(C(C)C)C(=O)C3)s1 | 30% human serum | MT-2 | RT activity | - | IIIB | <0.199 µM
CC1CCCCN1C(=O)Cn1cc(N2CCCS2(=O)=O)n2c(=O)c(O)c(C(=O)NCc3ccc(F)cc3S(=O)(=O)N(C)C)nc12 | - | HEK 293 | luciferase | QHGS | - | 0.5–1 µM
CC(C)CN(C[C@@H](O)[C@H](Cc1ccccc1)NC(=O)OCc1cncs1)S(=O)(=O)c1ccc2nc(N(C)C(=O)CN(C)CCCN3CCCC3)sc2c1 | - | MT-4 | cytopathic effect / MTT | - | R13025 | 0.9333 µM
CSCc1cn(CC(=O)N2CC(C)CC(C)C2)c2nc(C(=O)NCc3ccc(Cl)c(Cl)c3)c(O)c(=O)n12 | - | HEK 293 | luciferase | QHGS | - | 1–10 µM
CC(C)CN(C[C@@H](O)[C@H](Cc1ccccc1)NC(=O)OCc1cncs1)S(=O)(=O)c1ccc2nc(NC(=O)CN3CCNCC3)sc2c1 | - | MT-4 | cytopathic effect / MTT | - | R13025 | 0.0316 µM
CC(C)C1=C2[C@H]3CC[C@@H]4[C@@]5(C)CC[C@H](OC(=O)CC(C)(C)C(=O)O)C(C)(C)[C@@H]5CC[C@@]4(C)[C@]3(C)CC[C@@]2(NC(=O)c2cn(C)cn2)CC1=O | 30% human serum | MT-2 | RT activity | - | IIIB | <0.199 µM
CC(C)CN(C[C@@H](O)[C@H](Cc1ccccc1)NC(=O)OCc1cncs1)S(=O)(=O)c1ccc2nc(NC(=O)CN3CCN(C)CC3)sc2c1 | - | MT-4 | cytopathic effect / MTT | - | R13080 | 0.0347 µM
CCN1c2ncc(CCOc3ccc(-c4cccc(CC(=O)O)c4)cc3)cc2C(=O)N(C)c2cccnc21 | - | C8166 | p24 | - | IIIB | <0.01 µM
Cc1ncc(-c2ccc(OCC3CCOCC3)cn2)c(N2CCC(C)(C)CC2)c1[C@H](OC(C)(C)C)C(=O)O | - | MT-2 | luminescence | - | NL4-3 | 0.0026 µM
COC(=O)c1cc(F)ccc1Cc1cnc(-c2nc3n(CC(=O)N4C[C@H](C)O[C@@H](C)C4)ccn3c(=O)c2O)s1 | - | HEK 293 | luciferase | QHGS | - | 0.5–1 µM
CC(C)CN(C[C@@H](O)[C@H](Cc1ccccc1)NC(=O)O[C@H]1CO[C@H]2OCC[C@H]21)S(=O)(=O)c1ccc2nc(NC(=O)c3ccccn3)sc2c1 | - | MT-4 | cytopathic effect / MTT | - | R13025 | 0.0076 µM
Cc1ncc(-c2ccc(OCC3CCC(C)CC3)cn2)c(N2CCC(C)(C)CC2)c1[C@H](OC(C)(C)C)C(=O)O | - | MT-2 | luminescence | - | NL4-3 | 0.0016 µM
Cc1cc(S(N)(=O)=O)ccc1NC(=O)COc1ccc(Cl)cc1C(=O)c1cc(F)cc(C(F)(F)F)c1 | 25% human serum | HELA MAGI | β-galactosidase | K103N | - | 5.8 µM
CC(C)CN(C[C@@H](O)[C@H](Cc1ccccc1)NC(=O)O[C@H]1CCOC1)S(=O)(=O)c1ccc2nc(NCCN(C)C)sc2c1 | - | MT-4 | cytopathic effect / MTT | - | R13080 | 1 µM
Cc1cnn(CCOc2ccc(-c3cnc(C)c([C@H](OC(C)(C)C)C(=O)O)c3N3CCC(C)(C)CC3)nc2)c1 | - | MT-2 | luminescence | - | NL4-3 | 0.0056 µM
CCN1c2ncc(CCOc3ccc(-c4ccc(CC(=O)O)c(F)c4)cc3C)cc2C(=O)N(C)c2cccnc21 | - | C8166 | p24 | RT-K103N Y181C | - | <0.01 µM
Nc1nc(NC2CC2)c2ncn([C@H]3CO[C@@H](CO)O3)c2n1 | - | MT-2 | RT activity | RT-V75I | IIIB BCH-13520-resistant (RT V75I) | 0.48 µM
CCN1c2ncc(CCOc3ccc(C(=O)Nc4ccc[n+]([O-])c4)cc3C)cc2C(=O)Nc2c(C)ccnc21 | - | C8166 | p24 | - | IIIB | <0.01 µM
Cc1ccc(OCCN(C)c2ccc(-c3cnc(C)c([C@H](OC(C)(C)C)C(=O)O)c3N3CCC(C)(C)CC3)nc2)cc1C | - | MT-2 | luminescence | - | NL4-3 | 0.005 µM
Clc1cc(CN2CCCNCCNCCCNCC2)cc(Cl)n1 | - | U87-CD4-CCR5 + U87 | p24 | - | NL4-3 X4 | 17.6 µM
CC(C)C1=C2C3CCC4[C@@]5(C)CC[C@H](OC(=O)CC(C)(C)C(=O)O)C(C)(C)C5CC[C@@]4(C)[C@]3(C)CC[C@@]2(NC(=O)N2CC[C@H](N)C2)CC1=O | 30% human serum | MT-2 | RT activity | - | IIIB | <0.199 µM
CC(C)CN(C[C@@H](O)[C@H](Cc1ccccc1)NC(=O)OC(C)(C)C)S(=O)(=O)c1ccc2nc(NCc3ccncc3)sc2c1 | - | MT-4 | cytopathic effect / MTT | - | IIIB | 0.3311 µM
CC(C)C1=C2[C@H]3CC[C@@H]4[C@@]5(C)CC[C@H](OC(=O)CC(C)(C)C(=O)O)C(C)(C)[C@@H]5CC[C@@]4(C)[C@]3(C)CC[C@@]2(N)CC1=O | 30% human serum | MT-2 | RT activity | - | IIIB | <0.199 µM
CSCc1cn(CC(=O)N2CC(C)CC(C)C2)c2nc(C(=O)NCc3ccc(F)cc3S(=O)(=O)N(C)C)c(O)c(=O)n12 | - | HEK 293 | luciferase | QHGS | - | <0.5 µM
Cc1ncc(-c2ccc(NCCOc3cc(F)cc(F)c3)nc2)c(N2CCC(C)(C)CC2)c1[C@H](OC(C)(C)C)C(=O)O | - | MT-2 | luminescence | - | NL4-3 | 0.004 µM
CC(C)C1=C2[C@H]3CC[C@@H]4[C@@]5(C)CC[C@H](OC(=O)CC(C)(C)C(=O)O)C(C)(C)[C@@H]5CC[C@@]4(C)[C@]3(C)CC[C@@]2(NC(=O)c2cnn(C)c2)CC1=O | 30% human serum | MT-2 | RT activity | - | IIIB | <0.199 µM
CC(C)CN(C[C@@H](O)[C@H](Cc1ccccc1)NC(=O)O[C@H]1CCOC1)S(=O)(=O)c1ccc2nc(NC(=O)CN3CCN(C)CC3)sc2c1 | - | MT-4 | cytopathic effect / MTT | - | LAI | <0.05 µM
CC1CCCCN1C(=O)Cn1ccn2c(=O)c(O)c(-c3ncc(Cc4ccc(F)cc4)s3)nc12 | - | HEK 293 | luciferase | QHGS | - | 0.5–1 µM
CC(C)CN(C[C@@H](O)[C@H](Cc1ccccc1)NC(=O)OCc1cncs1)S(=O)(=O)c1ccc2nc(N(C)C(=O)CN(C)C)sc2c1 | - | MT-4 | cytopathic effect / MTT | - | R13080 | 0.2239 µM
CC1CCN(C(=O)Cn2ccn3c(=O)c(O)c(-c4ncc(Cc5ccc(F)cc5)s4)nc23)CC1 | - | HEK 293 | luciferase | QHGS | - | 0.5–1 µM
CC(C)C1=C2C3CCC4[C@@]5(C)CC[C@H](OC(=O)CC(C)(C)C(=O)O)C(C)(C)C5CC[C@@]4(C)[C@]3(C)CC[C@@]2(N(C)C(=O)C2CC3CCC(C2)O3)CC1=O | 30% human serum | MT-2 | RT activity | - | IIIB | <0.199 µM
O=c1[nH]cnc2c1ncn2[C@@H]1O[C@H](CO)[C@H]1CO | - | MT-4 | RT activity | - | RF | 2.7 µM

For reference, 5 entries again:

| compound | conditions | cell line | read by | changes | strain | result |
|---|---|---|---|---|---|---|
| CSCc1cn(CC(=O)N2CC(C)CC(C)C2)c2nc(C(=O)NCc3ccc(Cl)c(Cl)c3)c(O)c(=O)n12 | - | HEK 293 | luciferase | QHGS | - | 1–10 µM |
| CC(C)CN(C[C@@H](O)[C@H](Cc1ccccc1)NC(=O)OCc1cncs1)S(=O)(=O)c1ccc2nc(NC(=O)CN3CCN(C)CC3)sc2c1 | - | MT-4 | cytopathic effect / MTT | - | R13080 | 0.0347 µM |
| C[C@H]1CN(C(=O)Cn2ccn3c(=O)c(O)c(-c4ncc(Cc5ccc(F)cc5)s4)nc23)C[C@H](C)O1 | - | HEK 293 | luciferase | - | - | 0.001–0.1 µM |
| Clc1cc(CN2CCCNCCNCCCNCC2)cc(Cl)n1 | - | U87-CD4-CCR5 + U87 | p24 | - | NL4-3 X4 | 17.6 µM |
| COC(=O)c1cc(F)ccc1Cc1cnc(-c2nc3n(CC(=O)N4C[C@H](C)O[C@@H](C)C4)ccn3c(=O)c2O)s1 | - | HEK 293 | luciferase | QHGS | - | 0.5–1 µM |

Lines come from different laboratories, so protocols vary. Two numbers with a dash give a range or band. An empty or dashed field is not shown.